In publication PMC3166015 (Emerging Infectious Diseases, 2011):

Biological target: NA activity of oseltamivir-resistant (OR, H275Y) pandemic (H1N1) 2009 virus (Influenza A virus, UniProt C3W5S3, H275Y)
Assay type: biochemical
Settings: read-out: IC50, Mean ± SD

Work on `CC(=O)N[C@H]1[C@H]([C@H](O)[C@H](O)CO)OC(C(=O)O)=C[C@@H]1N=C(N)N` [Zanamivir, zanamivir] yielded an IC50 of 0.36 nM.
